Pooled drug test results. Numbers come from NIAID ChemDB, via PubChem.

Common to all: whole-cell or culture tests; agent: Mycobacterium tuberculosis

Percent inhibition refers to the dose given; in toxicity tests it is the harm to the cells.

SMILES,strain or isolate,method,read-out,setting,tested at,value
CN[C@@H]1[C@H](O[C@H]2[C@H](O[C@H]3[C@H](O)[C@@H](O)[C@H](N=C(N)N)[C@@H](O)[C@@H]3N=C(N)N)O[C@@H](C)[C@]2(O)C=O)O[C@@H](CO)[C@H](O)[C@H]1O,Isolate 10,,MIC,,,4 µg/mL
CCCSC(=S)Nc1nc2ccc(C)cc2s1,H37Rv,BACTEC,MIC,,,16 µg/mL
CCOC(=O)c1ccc2c(c1)nc(-c1ccc(OC)cc1)n2CCN1CCCOC1,H37Rv,resazurin / fluorescence,EC50,,,99.79 µM
O=c1[nH]c2c([N+](=O)[O-])cccc2c(O)c1N=Nc1ccc(Cl)c(Cl)c1,H37Rv,resazurin,MIC,,,<6.25 µg/mL
O=C([C@@H](O)CO)N1CC=C(c2c(F)cc(N3C[C@H](COc4ccon4)OC3=O)cc2F)CC1,H37Rv Harlingen,broth dilution,MIC,,,0.25 µg/mL
CCOC(=O)c1ccc2c(c1)nc(-c1ccc(N(C)C)cc1)n2CCN1CCCOC1,H37Rv,resazurin / fluorescence,EC50,,,>100 µM
CC1COc2c(N3CCN(C)CC3)c(F)cc3c(=O)c(C(=O)O)cn1c23,INH resistant (ATCC 35822),,MIC,,,0.5–1 µg/mL
Cc1ccc(-n2cc(CNC3c4ccccc4-c4ccccc43)nn2)cc1C,Specimen 192,broth dilution,MIC99,,,>273 µM
C=C/C(C)=C/[C@@]1(C)SC(=O)C(C)=C1O,NHN335,,MIC,,,20 µg/mL
CCCOc1c(C(C)=O)cc([N+](=O)[O-])c2nccc(CC)c12,H37Rv,,MIC,,,>6.25 µg/mL
COC(=O)Nc1nc2ccc(-c3c(C)oc(C)c3C(=O)O)cc2[nH]1,H37Rv,BACTEC,MIC bound,,,>12.5 µg/mL
NNC(=O)c1ccncc1,Isolate 8,,MIC,,,2 µg/mL
CC(=O)OC1C(CNC(=O)N(C)N=O)OC(OC2(CNC(=O)N(C)N=O)OC(CNC(=O)N(C)N=O)C(OC(C)=O)C2OC(C)=O)C(OC(C)=O)C1OC(C)=O,H37Rv,BACTEC,MIC bound,,,>12.5 µg/mL
CC1CN(c2cc3c(cc2F)c(=O)c(C(=O)O)cn3-c2ccc(F)cc2F)CCN1,Drug-resistant,,MBC90,,,4 µg/mL
Cc1ccc2nc(Nc3ccc(Cl)cc3)cc(C(O)C3CCCCN3)c2c1,H37Rv,resazurin,inhibition,,6.25 µg/mL,95%
CCOC(=O)c1ccc2c(c1)nc(-c1ccc(OC)cc1)n2CCN1CCCC1=O,H37Rv,resazurin / fluorescence,MIC,,,>100 µM
COc1cc(/C=N/NC(=O)c2ccc(F)cc2)ccc1O,H37Rv,,inhibition,,6.25 µg/mL,3%
COc1cccc2c1C(=O)c1c(O)c3c(c(O)c1C2=O)C[C@@](O)(/C(C)=N/NC(=O)c1ccc(Cl)c(Cl)c1)C[C@H]3O[C@H]1C[C@H](N)[C@H](O)[C@H](C)O1,INH-r,,MIC,,,>12.5 µg/mL
O=[N+]([O-])c1ccc(-n2cc(CS(=O)(=O)C3c4ccccc4-c4ccccc43)nn2)cc1,Specimen 192,broth dilution,MIC99,,,>231 µM
CC(Cc1cccc2c1Nc1ccccc1S2)N(C)CCO,H37Rv,BACTEC,MIC bound,,,>12.5 µg/mL
CO[C@H]1/C=C/O[C@@]2(C)Oc3c(C)c(O)c4c(O)c(c(/C=N/N5CCN(C6CCCC6)CC5)c(O)c4c3C2=O)NC(=O)/C(C)=C\C=C\[C@H](C)[C@H](O)[C@@H](C)[C@@H](O)[C@@H](C)[C@H](O)[C@@H]1C,Isolate 900145 drug-susceptible,,MIC,,,0.25 µg/mL
CC[C@H]1OC(=O)[C@H](C)[C@@H](O[C@H]2C[C@@](C)(OC)[C@@H](O)[C@H](C)O2)[C@H](C)[C@@H](O[C@@H]2O[C@H](C)C[C@H](N(C)C)[C@H]2O)[C@](C)(O)C[C@@H](C)CN(C)[C@H](C)[C@@H](O)[C@]1(C)O,Drug-resistant,,MIC50,,,>8 µg/mL
CCC1CN(c2c(F)cc3c(=O)c(C(=O)O)cn(C4CC4)c3c2OC)CCN1,44 (RFP-resistant),,MIC,,,0.5 µg/mL
CCCCCCCN1C(=O)c2ccnnc2Oc2ccc3ccccc3c21,H37Rv,BACTEC,inhibition,,12.5 µg/mL,0%
COCC1OC(O[C@@H]2C3=C(C(C)C)CC[C@]3(C)/C=C3\[C@@H](CC[C@]3(O)COC)[C@@H](C)[C@H]2O)C(O)C2OC3OC12O[C@@]3(C)[C@@H]1CO1,H37Rv,BACTEC,MIC,,,≥12.5 µg/mL
CCOc1cc(/C=N/NC(=O)c2ccc(F)cc2)ccc1O,H37Rv,,MIC,,,>6.25 µg/mL
CCOC(=O)c1ccc2c(c1)nc(-c1ccc(O)c(OC)c1)n2CCN1CCCC1=O,H37Rv,resazurin / fluorescence,MIC,,,>100 µM
S=C(Nc1ccc(Cl)c(Cl)c1)SCc1ccc2c(c1)OCO2,H37Rv,BACTEC,MIC,,,128 µg/mL
COc1ccc(N=Nc2c(O)c3cccc([N+](=O)[O-])c3[nH]c2=O)c(C)c1,H37Rv,resazurin,inhibition,,6.25 µg/mL,45%
COc1cc(O)c2c(O)c3c(=O)cc(C)oc3cc2c1,H37Rv,BACTEC,MIC bound,,,≤12.5 µg/mL
CCCCCCCCN1C(=O)c2cc(Cl)nnc2Oc2ccc(C)cc21,H37Rv,BACTEC,inhibition,,12.5 µg/mL,19%
O=c1[nH]c2c([N+](=O)[O-])cccc2c(O)c1N=Nc1cccc([N+](=O)[O-])c1,H37Rv,resazurin,inhibition,,6.25 µg/mL,60%
O=C(N/N=C/Cc1ccccc1)c1ccc(F)cc1,H37Rv,,MIC,,,>6.25 µg/mL
O=c1[nH]c2ccc(Cl)cc2c(O)c1N=Nc1ccccc1[N+](=O)[O-],H37Rv,resazurin,inhibition,,6.25 µg/mL,64%
Cc1nc2sccn2c1C(=O)NC(=O)Nc1ccc(Cl)cc1,H37Rv,BACTEC,MIC bound,,,>12.5 µg/mL
NNC(=O)c1ccncc1,H37Rv (ATCC 35811),broth dilution,MIC,,,0.03 µg/mL
NC1CCN(c2c(F)cc3c(=O)c(C(=O)O)cn(C4CC4)c3c2Cl)C1,ATCC 35830,,MBC,,,0.125 µg/mL
CC(=O)c1c(C)[nH]c(C(=O)N/N=C/c2cccc([N+](=O)[O-])c2)c1C,H37Rv,resazurin,MIC,,,<6.25 µg/mL
O=C1NS(=O)(=O)C2C(Cl)=C(Cl)C3(Cl)C2C13Cl,H37Rv,resazurin,MIC bound,,,>6.25 µg/mL
NNC(=O)c1ccncc1,PR441,,MIC,,,5 µg/mL
NC(=O)c1cnccn1,Erdman,,MIC,,,50 µg/mL
CC(=O)c1ccc(N=Nc2c(O)c3ccc(Cl)c(Cl)c3[nH]c2=O)cc1,H37Rv,resazurin,inhibition,,6.25 µg/mL,98%
CN(C)c1ccc(C(C2=C(O)c3ccccc3C(=O)C2=O)C2=C(O)c3ccccc3C(=O)C2=O)cc1,H37Rv,BACTEC,inhibition,,12.5 µg/mL,18%
O=c1[nH]c2cc(Cl)ccc2c(O)c1N=Nc1ccc(F)cc1,H37Rv,resazurin,EC50,,,6.25 µg/mL
O=c1[nH]c2c([N+](=O)[O-])cccc2c(O)c1N=Nc1ccccc1[N+](=O)[O-],H37Rv,resazurin,MIC,,,<6.25 µg/mL
O=c1[nH]c2c([N+](=O)[O-])cccc2c(O)c1N=Nc1ccccc1-c1ccccc1,H37Rv,resazurin,inhibition,,6.25 µg/mL,35%
CC(=O)c1cc([N+](=O)[O-])c2nc(C(C)(C)C)ccc2c1,H37Rv,,inhibition,,6.25 µg/mL,0%
CCOC(=O)c1ccc2c(c1)nc(-c1ccc3c(c1)OCO3)n2CCN1CCCOC1,H37Rv,resazurin / fluorescence,MIC,,,>100 µM
CC(=O)Nc1ccc(C2OC(=O)C(O)=C2C(=O)C=C(C)C)cc1,H37Rv,resazurin,inhibition,,6.25 µg/mL,-3%
O=[N+]([O-])c1cccc2c(C3CCCCC3)cc(C3CCCCC3)nc12,Rifampicin-resistant,,MIC,,,6.25 µg/mL
C[C@@H]1O[C@@H](O[C@H]2[C@H](Oc3cc(O)c4c(c3)O[C@@H](c3ccc(O)cc3)CC4=O)O[C@H](CO)[C@@H](O)[C@@H]2O)[C@H](O)[C@H](O)[C@H]1O,H37Rv,BACTEC,MIC,,,≥128 µg/mL
C[C@H]1COc2c(N3CCN(C)CC3)c(F)cc3c(=O)c(C(=O)O)cn1c23,ATCC 35828,,MBC,,,0.5 µg/mL
C[C@@H]1CN(c2c(F)c(N)c3c(=O)c(C(=O)O)cn(C4CC4)c3c2F)C[C@H](C)N1,S-3M (susceptible),,MIC,,,0.2 µg/mL
O=C(N/N=C/c1ccc(O)cc1)c1ccc(F)cc1,H37Rv,,EC50,,,>6.25 µg/mL
C[C@H]1COc2c(N3CCN(C)CC3)c(F)cc3c(=O)c(C(=O)O)cn1c23,Isolate 2,,MIC,,,16 µg/mL
CC(C)c1cc(C(C)C)c2cccc([N+](=O)[O-])c2n1,H37Rv,,MIC,,,>6.25 µg/mL
CCc1ccc(-n2cc(CSC3c4ccccc4-c4ccccc43)nn2)cc1,Specimen 192,broth dilution,MIC99,,,261 µM
NC1CN(c2c(F)cc3c(=O)c(C(=O)O)cn(C4CC4)c3c2Cl)CC12CC2,40 (RFP-susceptible),,MIC,,,0.1 µg/mL
Cc1c([N+](=O)[O-])oc2ccc3ccccc3c12,H37Rv,BACTEC,MIC,,,3.13 µg/mL
CC(C)N=c1cc2n(-c3ccc(Cl)cc3)c3ccccc3nc-2cc1Nc1ccc(Cl)cc1,2218,,MIC,multidrug-resistant,,0.5 µg/mL
O=[N+]([O-])c1cc(F)ccc1-n1cc(CS(=O)(=O)C2c3ccccc3-c3ccccc32)nn1,H37Rv,broth dilution,MIC99,,,>222 µM
Cc1ccc2c(c1)N(CCC(C)C)C(=O)c1cc(Cl)nnc1O2,H37Rv,BACTEC,EC50,,,<12.5 µg/mL
Cc1cccc(N=Nc2c(O)c3ccccc3[nH]c2=O)c1,H37Rv,resazurin,inhibition,,6.25 µg/mL,42%
O=C1C2C3CCC(O3)C2C(=O)N1c1nccs1,H37Rv,BACTEC,MIC bound,,,>12.5 µg/mL
O=C(O)c1cn(C2CC2F)c2c(Cl)c(N3CC4CCCNC4C3)c(F)cc2c1=O,43 (RFP-susceptible),,MIC,,,0.1 µg/mL
N[C@@H]1CONC1=O,H37Rv,resazurin / fluorescence,EC50,,,24.76 µM
CC(CC#N)NC(=O)C1CCC(N)=N1.Cl,H37Rv,BACTEC,inhibition,,12.5 µg/mL,22%
CCOC(=O)c1ccc2nc(-c3ccc(O)c(OC)c3)[nH]c2c1,H37Rv,resazurin / fluorescence,EC50,,,83.66 µM
CC1COc2c(N3CCN(C)CC3)c(F)cc3c(=O)c(C(=O)O)cn1c23,Drug-resistant,,MBC90,,,2 µg/mL
CCOC(=O)c1ccc2c(c1)nc(-c1ccc(C(=O)O)cc1)n2CCN1CCCOC1,H37Rv,resazurin / fluorescence,EC90,,,>100 µM
CC(=O)n1nc(C)c(-c2onc3ccc(Cl)cc23)c1C,H37Rv,BACTEC,MIC bound,,,>12.5 µg/mL
CO[C@H]1/C=C/O[C@@]2(C)Oc3c(C)c(O)c4c(O)c(c(/C=N/N5CCN(C)CC5)c(O)c4c3C2=O)NC(=O)/C(C)=C\C=C\[C@H](C)[C@H](O)[C@@H](C)[C@@H](O)[C@@H](C)[C@H](OC(C)=O)[C@@H]1C,TN981,,MIC,,,>32 µg/mL
NNC(=O)c1ccc(-c2ccccc2)cc1,H37Rv,BACTEC,MIC bound,,,>12.5 µg/mL
CO[C@H]1/C=C/O[C@@]2(C)Oc3c(C)c(O)c4c(O)c(c5c(c4c3C2=O)NC2(CCN(CC(C)C)CC2)N=5)=NC(=O)/C(C)=C\C=C\[C@H](C)[C@H](O)[C@@H](C)[C@@H](O)[C@@H](C)[C@H](OC(C)=O)[C@@H]1C,S-24M (susceptible),,MIC,,,0.05 µg/mL
CC(=O)c1cc([N+](=O)[O-])c2nc(C3CCCCC3)ccc2c1C1CCCCC1,H37Rv,,inhibition,,6.25 µg/mL,0%
O=C1c2cc(Cl)nnc2Oc2ccc3ccccc3c2N1CC1CCCCC1,H37Rv,BACTEC,inhibition,,12.5 µg/mL,37%
CCc1cccc(CC)c1Nc1nc2c(s1)C(=O)c1ccccc1C2=O,H37Rv,BACTEC,inhibition,,12.5 µg/mL,100%
CC1COc2c(N3CCN(C)CC3)c(F)cc3c(=O)c(C(=O)O)cn1c23,891207,,MIC,,,0.5 µg/mL

Repeating the final 7 entries:

SMILES | strain or isolate | method | read-out | setting | tested at | value
CO[C@H]1/C=C/O[C@@]2(C)Oc3c(C)c(O)c4c(O)c(c(/C=N/N5CCN(C)CC5)c(O)c4c3C2=O)NC(=O)/C(C)=C\C=C\[C@H](C)[C@H](O)[C@@H](C)[C@@H](O)[C@@H](C)[C@H](OC(C)=O)[C@@H]1C | TN981 |  | MIC |  |  | >32 µg/mL
NNC(=O)c1ccc(-c2ccccc2)cc1 | H37Rv | BACTEC | MIC bound |  |  | >12.5 µg/mL
CO[C@H]1/C=C/O[C@@]2(C)Oc3c(C)c(O)c4c(O)c(c5c(c4c3C2=O)NC2(CCN(CC(C)C)CC2)N=5)=NC(=O)/C(C)=C\C=C\[C@H](C)[C@H](O)[C@@H](C)[C@@H](O)[C@@H](C)[C@H](OC(C)=O)[C@@H]1C | S-24M (susceptible) |  | MIC |  |  | 0.05 µg/mL
CC(=O)c1cc([N+](=O)[O-])c2nc(C3CCCCC3)ccc2c1C1CCCCC1 | H37Rv |  | inhibition |  | 6.25 µg/mL | 0%
O=C1c2cc(Cl)nnc2Oc2ccc3ccccc3c2N1CC1CCCCC1 | H37Rv | BACTEC | inhibition |  | 12.5 µg/mL | 37%
CCc1cccc(CC)c1Nc1nc2c(s1)C(=O)c1ccccc1C2=O | H37Rv | BACTEC | inhibition |  | 12.5 µg/mL | 100%
CC1COc2c(N3CCN(C)CC3)c(F)cc3c(=O)c(C(=O)O)cn1c23 | 891207 |  | MIC |  |  | 0.5 µg/mL

MIC bound: limit read from a one-dose screen. MIC50, MIC90 and the like: level of inhibition, or share of isolates inhibited. ECn: concentration that inhibits the pathogen or its effect by n%. Blank or dashed fields: not listed here. a–b is a range or a potency band. Lines come from different laboratories, so protocols vary.